For at least one entry, the source does not settle the construct or the ends of the probe.
Target: CRP (cAMP receptor protein) (UniProt O34015)
Assay: EMSA
Conditions: 0.2 mM cAMP, CRP 0, 0.35-4.2 uM, herring sperm DNA 12.5 ug/ml; recombinant protein; label: 32P end label (T4 PNK); probe letters rebuilt from the primers and the genome

Question: Does “GCCCGAAGCTTCATGTTCGAATCCTTTAGTGGTAAAAAAGTAAACGGTTGCGTAAACGATTGGCGGCGATTATAGAGTTATCAAAAAACAAATTCCAGACACAATTCTGACTGTACGCGGGTTTTCTAACCAAAAAGGGAATCTGTCGATCAGAAGATAAGTCAATTGCTCAATACCAACAGAATGTTGCGATCAAGTTCGAATAGGGAAGATTTTTTGAGGATAAAAAAACGCCACCTCAAGTGAGATGGCGGTGAATCATATCGACCAAATTTGGTCGTCAATAAATTCCAATTTAGGGGTGAACAAAACTTGTTCGAGACGCAAAAGTTGCGTATCAGTAGCCGAAGCTACGAGGGTATGCAAAGTTACCGGTGTACATAGAGTGTTGGTTCCAGAACATTGCAGACGATAAACCTTTATTCATAACTATCACCATTAAAATCAAAACTGTTTACTTGATTTCTCGGTTCCATGGAGGCGATAAATCGGACTCATCCTTTGAGCGTTTTCTCTTCGCTAGCGAAGCTGTACACAAATATACCACCAAGAAATTAAATTACAACACTTAAGGTGATTAAAATCACAAAAATCATTTAAATTGATCTTTGTCAGCATTTTTTAGTAATTTAATTACAACTTTATTAAGAAAAATTACAGTTAAAGTGCATGAAGATGCATTTGCCTACCTCAGTCACGTTACGTCTTCTTATCATTCCTGACGCTAGCCGATGATCAAAACCCGTTTTCCTGCCACTTTTGACCTACACCCTGCCCCTGCACAGTGATATGCTGTGCAACGAAAGTACCTACCTGTTACAGGCAAATTCTCTGCCACGACCCAGCTCTGGAGAGAGGATACACGGGAAAAATTACAGTAAGGAGTCATCTGTGGAATTCGCAGCC (double strand) [vcdRP promoter fragment]” bind?
Answer: binds

Source: paper PMC8672173
